The results in this text go back to patent publication US20230332126.

The data set concerns the target full-length human recombinant SNAP23 protein (23 kDa).

B1: wild-type BoNT/E light chain (protein)
chain: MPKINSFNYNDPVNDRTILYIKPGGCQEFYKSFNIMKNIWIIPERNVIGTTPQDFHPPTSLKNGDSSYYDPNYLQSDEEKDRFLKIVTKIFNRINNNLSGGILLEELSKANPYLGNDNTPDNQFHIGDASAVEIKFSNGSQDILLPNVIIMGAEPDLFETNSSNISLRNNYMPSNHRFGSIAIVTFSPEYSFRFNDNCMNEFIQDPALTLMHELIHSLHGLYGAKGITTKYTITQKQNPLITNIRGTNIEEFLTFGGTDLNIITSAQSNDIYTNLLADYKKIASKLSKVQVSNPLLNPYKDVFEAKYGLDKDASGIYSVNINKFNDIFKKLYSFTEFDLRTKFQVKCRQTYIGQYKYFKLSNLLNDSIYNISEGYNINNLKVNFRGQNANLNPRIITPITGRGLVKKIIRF
In the case of B1, the “in vitro cleavage, anti-SNAP23 Western blot (400 nM, 37° C., 1 hour)” value was “The untreated, wtLC/A, and wtLC/E lanes provided negative controls”.
